Anti-infective test results gathered from many reports (values: NIAID ChemDB through PubChem).

All rows: whole-cell or culture tests; agent: Mycobacterium avium

Conditions beyond the fields shown may differ between rows. An empty or dashed field is not shown.

| SMILES | endpoint | setting | strain | value |
|---|---|---|---|---|
| CC(=O)Oc1cc(Cl)ccc1C(=O)Nc1ccc(Cl)c(Cl)c1 | MIC | - | MY330/88 | 8 µg/mL |
| O/N=C(/Cn1ccnc1)c1ccc(F)cc1 | MIC | - | 103317 | 72.9 µM |
| O=C(Nc1ccc(C(F)(F)F)cc1)c1ccc(Cl)cc1OS(=O)(=O)c1ccccc1 | MIC | 21 d | 330/88 | 250 µM |
| COc1ccc2c(=O)n(-c3ccc(C)cc3)c(=O)oc2c1 | MIC | - | CNCTC MY330/88 | 62.5 µM |
| O=C(Nc1ccccc1N1CCSCC1)c1ccc(-c2ccccc2)cc1 | MIC | - | 103317 | 82.5 µM |
| O=C(Nc1ccc(Cl)c(Cl)c1)c1ccccc1O | MIC | - | CNCTC MY330/88 | 16 µM |
| CCCCCCCC[N+]1(CCOC(=O)Nc2ccccc2OCCCCC)CCCCC1 | MIC | - | MY330/88 | 16 µM |
| C(=C\c1ccccc1)/CNc1ccc(Cn2ccnc2)cc1 | MIC | - | 103317 | 34.6 µM |
| O=c1oc2ccc(F)cc2c(=O)n1-c1ccc(Br)cc1 | MIC | - | CNCTC MY330/88 | 8 µM |
| O=C(Nc1ccc(F)cc1)c1ccccc1O | MIC | - | CNCTC MY330/88 | 31 µM |
| Clc1ccc(C(Cn2ccnc2)NCc2cccc3ccccc23)c(Cl)c1 | MIC | - | 103317 | 80.8 µM |
| Nc1ccc(C(=O)O)c(O)c1 | MIC | 21 d | 330/88 | 125 µM |
| O=C(Nc1cccc(Cl)c1)c1ccc(Cl)cc1OS(=O)(=O)c1ccccc1 | MIC | 14 d | 330/88 | 500 µM |
| CCCCCCCCCCCC[N+]1(CCOC(=O)Nc2ccccc2OCCCCCC)CCCCC1 | MIC | - | MY330/88 | 16 µM |
| CC(=O)Oc1c(Cl)cccc1C(=O)Nc1ccc(Cl)cc1 | MIC | - | MY330/88 | 8 µg/mL |
| O=c1oc2ccc(F)cc2c(=O)n1-c1cccc([N+](=O)[O-])c1 | MIC | - | CNCTC MY330/88 | 16 µM |
| Cc1ccc(C(Cn2ccnc2)OCc2ccc(C(C)(C)C)cc2)cc1 | MIC | - | 103317 | 2.87 µM |
| CCCCC(C/C(C)=C/CC[C@H](C)CCO)C(=O)O | MIC | - | - | 31.25 µM |
| O=C(Nc1cccc(F)c1)c1cc(Cl)ccc1OS(=O)(=O)c1ccccc1 | MIC | 21 d | 330/88 | 500 µM |
| CCCCCCOc1ccccc1NC(=O)OCC[N+]1(CCCC)CCCCC1 | MIC | - | MY330/88 | 125 µM |
| O=C(NCc1cccc(Cl)c1)c1ncccc1S | MIC | - | CNCTC MY330/88 | 16 µM |
| COc1ccc2c(=O)n(-c3ccc(Cl)cc3)c(=O)oc2c1 | MIC | - | CNCTC MY330/88 | 32 µM |
| O=C(Nc1ccc(Cl)c(Cl)c1)c1ccc(Cl)cc1OS(=O)(=O)c1ccccc1 | MIC | 21 d | 330/88 | 62.5 µM |
| CCCCCCCCCCC[N+]1(CCOC(=O)Nc2ccccc2OCCCCCC)CCCCC1 | MIC | - | MY330/88 | 16 µM |
| COC(=O)c1cnccn1 | MIC | 14 d | 330/88 | >500 µM |
| C/C(=C\CC[C@H](C)CCO)CC(Cc1ccccc1)C(=O)O | MIC | - | - | 125 µM |
| CC[C@H]1OC(=O)[C@H](C)[C@@H](O[C@H]2C[C@@](C)(OC)[C@@H](O)[C@H](C)O2)[C@H](C)[C@@H](O[C@@H]2O[C@H](C)C[C@H](N(C)C)[C@H]2O)[C@](C)(OC)C[C@@H](C)C(=O)[C@H](C)[C@@H](O)[C@]1(C)O | MBC | - | 3354 | 32 µg/mL |
| NC(=S)c1cc(SCc2ccc(F)c(F)c2)ccn1 | MIC | - | CNCTC MY330/88 | 7.94 µM |
| Fc1ccc(/C(Cn2ccnc2)=N\OCc2ccc(-c3ccccc3)cc2)cc1 | MIC | - | 103317 | 20.7 µM |
| O=C(NCc1ccc(Br)cc1)c1ncccc1O | MIC | - | CNCTC MY330/88 | 62.5 µM |
| CC(=O)Oc1cc(Cl)ccc1C(=O)Nc1cccc(Cl)c1 | MIC | - | MY330/88 | 16 µg/mL |
| CCCCCCOc1ccccc1NC(=O)OCC[N+]1(CC)CCCCC1 | MIC | - | MY330/88 | 250 µM |
| O=C(NCc1ccc(F)cc1)c1ncccc1S | MIC | - | CNCTC MY330/88 | 8 µM |
| N#Cc1cc(SCc2ccccc2)ccn1 | MIC | - | CNCTC MY330/88 | 126 µM |
| NNC(=O)c1ccncc1 | MIC | 14 d | 330/88 | >250 µM |
| N#Cc1cc(SCc2cccc(F)c2)ccn1 | MIC | - | CNCTC MY330/88 | 61.66 µM |
| O=C(Oc1cc(Cl)ccc1C(=O)Nc1ccc(C(F)(F)F)cc1)c1cnccn1 | MIC | 14 d | 330/88 | 4 µM |
| CC(=O)Oc1cc(Cl)ccc1C(=O)N(C(C)=O)c1ccc(Br)cc1 | MIC | - | MY330/88 | 8 µg/mL |
| N#Cc1cc(SCc2cccc([N+](=O)[O-])c2)ccn1 | MIC | - | CNCTC MY330/88 | 251 µM |
| CCCCCCCCCCCCC(C(=O)O)c1ccccc1 | MIC | - | - | 1.67 µM |
| COc1ccc(CSc2ccnc(C(N)=S)c2)cc1 | MIC | - | CNCTC MY330/88 | 15.85 µM |
| CCCCCCCC[N+]1(CCOC(=O)Nc2ccccc2OCCCCCC)CCCCC1 | MIC | - | MY330/88 | 32 µM |
| CCCC(C/C(C)=C/CC[C@H](C)CCO)C(=O)O | MIC | - | - | 62.5 µM |
| Clc1ccc(/C(Cn2ccnc2)=N/OCc2cccc3ccccc23)cc1 | MIC | - | 103317 | 21.3 µM |
| CCCCCCCCCCCC(CC(=O)O)c1ccccc1 | MIC | - | - | 2.5 µM |
| O=C(Oc1cc(Cl)ccc1C(=O)Nc1ccc(F)cc1)c1cnccn1 | MIC | 21 d | 330/88 | 4 µM |
| CC(C)(C)c1ccc(COC(Cn2ccnc2)c2ccc(Cl)cc2)cc1 | MIC | - | 103317 | 2.71 µM |
| CCC(C/C(C)=C/CC[C@H](C)CCO)C(=O)O | MIC | - | - | 62.5 µM |

The first 7 rows once more:

SMILES	endpoint	setting	strain	value
CC(=O)Oc1cc(Cl)ccc1C(=O)Nc1ccc(Cl)c(Cl)c1	MIC	-	MY330/88	8 µg/mL
O/N=C(/Cn1ccnc1)c1ccc(F)cc1	MIC	-	103317	72.9 µM
O=C(Nc1ccc(C(F)(F)F)cc1)c1ccc(Cl)cc1OS(=O)(=O)c1ccccc1	MIC	21 d	330/88	250 µM
COc1ccc2c(=O)n(-c3ccc(C)cc3)c(=O)oc2c1	MIC	-	CNCTC MY330/88	62.5 µM
O=C(Nc1ccccc1N1CCSCC1)c1ccc(-c2ccccc2)cc1	MIC	-	103317	82.5 µM
O=C(Nc1ccc(Cl)c(Cl)c1)c1ccccc1O	MIC	-	CNCTC MY330/88	16 µM
CCCCCCCC[N+]1(CCOC(=O)Nc2ccccc2OCCCCC)CCCCC1	MIC	-	MY330/88	16 µM